Data as given in PubChem BioAssay AID1259414 (Drosophila RNAi Screening Center, 2018)

- Screen: 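Host factors increasing or decreasing Wolbachia levels in cultured fly cells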 (primary screen)
- System: Drosophila JW18 cells infected with Wolbachia
- Reagent: long dsRNA against Drosophila genes, 0.25 µg dsRNA per well of a 384-well plate
- Duration: 5 days
- Conditions: cells persistently infected with Wolbachia before knock-down; no added drug
- Measurement: 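Imaged fluorescence in situ signal for Wolbachia 23S rRNA per DAPI-counted host cell, given as a robust z-score within each plate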
- Scale: Wolbachia per cell robust z: higher = more Wolbachia per host cell than the plate typical
- Call rule: 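Hit when robust z is 1.5 or more, or -1.5 or less, in at least two of three replicates; excludes dsRNAs with several or no targets, genes not expressed in JW18 and well A1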
In all, the deposit lists about 24,000 reagents; shown is an unselected part of those with a known target gene and a result. Of all reagents, about 1,210 (5%) got an active call. 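Inactive calls also include excluded dsRNAs with several or no targets, genes unexpressed in JW18, and well A1, regardless of score.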 A number with no mark means an inactive call. Reagents against one gene are numbered here. Names joined by + are all predicted targets of the reagent.

gene	dsRNA no.	Wolbachia per cell robust z, rep 1	Wolbachia per cell robust z, rep 2	Wolbachia per cell robust z, rep 3
S	1	0.499	0.302	0.443
S	2	0.916	0.643	1.05
CG13438	1	0.402	-0.065	0.781
CG9784	1	0.32	0.759	-0.124
CG9784	2	0.125	-0.167	0.483
MESK2 + CG10494	1	-6.17	-0.271	0.0273
spn-A	1	0.0251	1.22	0.678
Grl62b	1	0.0954	-0.138	0.482
CG14573	1	-0.344	0.0644	0.338
CG14573	2	-0.44	1.55	0.13
Ppcs	1	-3.13 (active)	-2.01	-7.94
sqz	1	-1.53 (active)	-0.225	-1.99
sqz	2	0.274	-1.35	-6.29
Tao	1	0.225	0.197	0.38
Tao	2	2.13 (active)	4.22	0.339
Tao	3	-0.363	-1.86	0.397
Tao	4	-3.29	0.628	-0.0149
CG14342	1	-2	0.849	-0.528
CG14342	2	0.929	1.38	0.602
CG13559	1	-0.203	0.0403	0.874
Adgf-E	1	-0.239	0.603	-1.1
Adgf-E	2	-0.859	1.28	-2
spas	1	0.201	-0.738	1.63
CG5902	1	-0.659	-0.735	-5.26
CG6462	1	-0.81	0.0489	0.417
CG6462	2	-0.605	1.02	-1.82
stumps	1	0.391	2.29	0.226
stumps	2	-5.31 (active)	0.192	-3.87
stumps	3	-0.693	-1.02	-0.845
HP1e	1	0.745	-5.72	-1.17
CG10587	1	1.11	-0.0335	1.29
Vha16-2	1	-0.0305	-0.339	-2.3
Vha16-2	2	-0.00732	0.378	-1.13
Capa	1	-1.06	0.685	-0.288
CG42729	1	-0.183	-0.225	0.325
Rpn13R	1	0.327	-1.11	0.375
Rpn13R	2	0.52	-1.67	-0.607
CG13398	1	-1.68	-1.16	-0.936
Ir56b	1	-2.18	-1.24	-2.7
Ir56b	2	0.858	-0.609	-0.85
Dsp1	1	0.535	0.656	0.718
Dsp1	2	-0.115	-0.0522	-0.235
CG13698	1	-1.86	0.66	0.0133
Crk	1	1.35	1.37	1.91
synr	1	-1.3	-0.124	-0.764
pasi2	1	-2.67	-0.186	1.11
CG18048	1	-1.65	-0.231	-1.29
CG18048	2	-0.959	-0.277	-0.243
CG30411	1	-1.2	-1.99	-0.861
CG30411	2	1.54	0.215	2.06

Individual results from the entries so far.
For “Wolbachia per cell robust z, rep 3”, Ppcs is entered as -7.94 (active)
Entry for CG30411 #1 in “Wolbachia per cell robust z, rep 2”: -1.99
For “Wolbachia per cell robust z, rep 1”, synr has -1.3
CG5902, Wolbachia per cell robust z, rep 3 → -5.26
Result for CG6462 #2 in “Wolbachia per cell robust z, rep 3”: -1.82
Crk, Wolbachia per cell robust z, rep 1: 1.35

Further reagents follow.
gene	dsRNA no.	Wolbachia per cell robust z, rep 1	Wolbachia per cell robust z, rep 2	Wolbachia per cell robust z, rep 3
CG4497	1	0.137	0.792	-2.14
LManI	1	-1.47	0.558	0.0584
LManI	2	-0.0802	0.0267	0.274
LManI	3	0.36	-0.473	0.704
CG1722	1	0.677	0.334	0.34
CG3517	1	0.643	0.314	0.317
CG3517	2	-0.594	-1.5	-1.43
ND-B14.5A	1	1.06	-0.0733	0.0719
CG8379	1	0.789	-0.061	0.736
CSN6	1	-1.16	-1.29	1.08
CG4461	1	-0.635	1.32	0.632
CG4461	2	0.869	0.00896	0.305
CG4461	3	-5.5	-0.424	-0.5
Opa1	1	-2.13 (active)	-0.406	-1.61
Opa1	2	0.135	-0.754	1.1
CG13627	1	-4.04	-1.97	0.462
Ntf-2	1	-1.45	-0.187	0.261
Ntf-2	2	-1.68 (active)	-1.64	-0.389
PGAP1	1	0.665	0.0288	0.654
PGAP1	2	0.816	1.37	-0.105
CG33298	1	-0.367	-0.403	-0.467
CG33298	2	0.736	0.883	0.315
CG11406	1	-10	-0.265	0.437
CG11406	2	1.34	0.412	-4.67
pyx + CG13877	1	-0.00456	0.266	-1.67
Tpr2	1	-0.676	-1.68	-0.207
Ucp4A	1	1.15	1.33	1.81
Ucp4A	2	-0.963	-1.25	-0.129
Or98P	1	-0.38	0.712	0.402
Or98P	2	-1.09	-1.85	-0.406
Sbp2	1	0.972	1.85	0.349
CG7646	1	0.637	-1.14	-0.864
tai	1	0.858	-2.2	0.399
tai	2	-0.902	0.547	0.0334
CG31415	1	-0.814	-0.614	-0.244
CG8547	1	-0.141	0.0733	-0.05
CG8547	2	0.954	1.25	1.81
